Pooled drug test results. Numbers come from NIAID ChemDB, via PubChem.

Shared fields: tests in culture; organism: Candida glabrata

Zones are inhibition diameters on agar. A number after MIC or MFC names an inhibition level or a share of isolates. ECn is the concentration giving n% inhibition of infection, replication or growth. Blank or dashed fields: not listed here. Percent inhibition refers to the dose given; in toxicity tests it is the harm to the cells. Neighbouring rows are from separate reports.

smiles,tested at,method,strain or isolate,conditions,read-out,value
CCC(C)CC(C)CCCCCCCCC(=O)N[C@H]1C[C@@H](O)[C@H](NCCN)NC(=O)[C@@H]2[C@@H](O)CCN2C(=O)[C@H]([C@H](O)CCN)NC(=O)[C@H]([C@H](O)[C@@H](O)c2ccc(O)cc2)NC(=O)[C@@H]2C[C@@H](O)CN2C(=O)[C@H]([C@@H](C)O)NC1=O,,broth dilution,,,MIC50,0.25 µg/mL
Clc1ccc(C(c2ccccc2)N2CCN(CCn3cncn3)CC2)cc1,,broth dilution,,,MFC,256 µg/mL
COc1ccccc1/C=N/c1n[nH]c(N)n1,200 µg/mL,agar diffusion / agar,,,inhibition,0%
C[C@@H](c1ncncc1F)[C@](O)(Cn1cncn1)c1ccc(F)cc1F,,broth dilution,,,MIC90,0.25 µg/mL
Cc1ccc(-c2c3c(N)c4c(nc3nc3c2c(C)nn3-c2ccccc2)CCCC4)cc1,,broth dilution / absorbance,CCC 115,,MIC100,>250 µg/mL
Cc1cc(C)c(N2C(=O)C=CC2=O)c(C)c1,,broth dilution,DSM 11226,,MIC80,1 µg/mL
CCOc1ccc2nc3cc(N=C4NC(=O)/C(=C\c5ccc([N+](=O)[O-])o5)S4)ccc3c(N)c2c1,,broth dilution,,,MFC,208 µg/mL
O=C1S/C(=C\c2cccnc2)C(=O)N1CC(O)(Cn1nccn1)c1ccc(F)cc1F,,,,,MIC80,4.51 µg/mL
C[C@@H]1[C@H](O)[C@@H](C)/C=C/C=C/C=C/C=C/C=C/C=C/C=C/[C@H](O[C@@H]2O[C@H](C)[C@@H](O)[C@H](N)[C@@H]2O)C[C@@H]2O[C@](O)(C[C@@H](O)C[C@@H](O)[C@H](O)CC[C@@H](O)C[C@@H](O)CC(=O)O[C@H]1C)C[C@H](O)[C@H]2C(=O)O,,broth dilution,LMA 90-1085,,MIC80,0.5 µg/mL
O/N=C\c1ccc(O)cc1,,broth dilution,,,MFC,>7290 µM
C=CC(C)(C)c1cc(C2CC(=O)c3c(cc(O)c(CC=C(C)C)c3O)O2)c(O)cc1O,2 mg/mL,agar diffusion / agar,hemoculture isolate 36293,,zone,0 mm
Nc1nc(/N=C/c2ccccn2)n[nH]1,200 µg/mL,agar diffusion / agar,,,inhibition,62%
O=C1S/C(=C\c2cccs2)C(=O)N1CC(O)(Cn1nccn1)c1ccc(F)cc1F,,,,,MIC80,0.56 µg/mL
Nc1nc(/N=C/c2ccc[n-]2)n[nH]1.Nc1nc(/N=C/c2ccc[n-]2)n[nH]1.[O]=[V+2],200 µg/mL,agar diffusion / agar,,,inhibition,75%
Clc1ccc(C(c2ccccc2)N2CCN(CCn3ccnc3)CC2)cc1,,broth dilution,,,MFC,>256 µg/mL
Cc1cc(C[n+]2cccc(C=NO)c2)on1.[Br-],,broth dilution,,,EC50,>20 µg/mL
CCC(C)CC(C)CCCCCCCCC(=O)N[C@H]1C[C@@H](O)[C@H](NCCN)NC(=O)[C@@H]2[C@@H](O)CCN2C(=O)[C@H]([C@H](O)CCN)NC(=O)[C@H]([C@H](O)[C@@H](O)c2ccc(O)cc2)NC(=O)[C@@H]2C[C@@H](O)CN2C(=O)[C@H]([C@@H](C)O)NC1=O,,broth dilution,40 isolates,pH 4,EC90,0.5 µg/mL
COc1ccc(/C=N\O)cc1,,broth dilution,,,MIC100,6620 µM
C[C@@H]1[C@H](O)[C@@H](C)/C=C/C=C/C=C/C=C/C=C/C=C/C=C/[C@H](O[C@@H]2O[C@H](C)[C@@H](O)[C@H](N)[C@@H]2O)C[C@@H]2O[C@](O)(C[C@@H](O)C[C@@H](O)[C@H](O)CC[C@@H](O)C[C@@H](O)CC(=O)O[C@H]1C)C[C@H](O)[C@H]2C(=O)O,,turbidity / absorbance,LMA 1085,,MIC80,0.125 µg/mL
C/C(=N/O)C(Cl)(Cl)Cl,,,,,MIC100,6450 µM
COc1ccc(N2C(=O)C=CC2=O)cc1,,broth dilution,DSM 11226,,MIC80,4 µg/mL
COc1ccccc1/C=N/c1n[nH]c(N)n1.COc1ccccc1/C=N/c1n[nH]c(N)n1.[O]=[V+2],200 µg/mL,agar diffusion / agar,,,inhibition,39%
Clc1ccccc1C(c1ccccc1)(c1ccccc1)n1ccnc1,,broth dilution,40 isolates,pH 7,EC90,2 µg/mL
O/N=C/c1ccc[n+](Cc2ccc(C[n+]3cccc(/C=N/O)c3)s2)c1.[Cl-].[Cl-],,broth dilution,,,EC50,>20 µg/mL
COc1cc(/C=C2\SC(=S)NC2=O)cc(OC)c1OCC(O)(Cn1cncn1)c1ccc(F)cc1F,,broth dilution,ATCC 90030,,MIC50,16 µg/mL
C[C@@H]1CC(=O)N(CCCCc2ccccc2)C1=O,,broth dilution / turbidity,CCC 115-2000,,MIC,125 µg/mL
c1ccc(C(c2ccccc2)n2cnc3ccccc32)cc1,,agar,,,MIC90,>256 µg/mL
Cn1cccc1/C=C1\SC(=O)N(CC(O)(Cn2nccn2)c2ccc(F)cc2F)C1=O,,,,,MIC80,2.24 µg/mL
NC=Nc1ccc(SCc2ccc(Cl)cc2)cc1,,,BG2,,MFC,50 µM
O=C(c1ccccc1)C(c1ccccc1)n1cncn1,,broth dilution,,,MFC,128 µg/mL
C[C@@H]1CC(=O)N(CCCc2ccccc2)C1=O,,broth dilution / turbidity,CCC 115-2000,,MIC,62.5 µg/mL
CC(=O)N1CCN(c2ccc(OC[C@H]3CO[C@](Cn4ccnc4)(c4ccc(Cl)cc4Cl)O3)cc2)CC1,20 mg/mL,agar diffusion / agar,G1,,zone,18 mm
NC=Nc1cccc(SCc2ccc(Cl)cc2)c1,,,BG2,,MFC,50 µM
CC1CC(=O)N(c2ccc(F)cc2)C1=O,,broth dilution / turbidity,CCC 115-2000,,MIC,125 µg/mL
CC[C@@H]([C@H](C)O)n1ncn(-c2ccc(N3CCN(c4ccc(OC[C@@H]5CO[C@@](Cn6cncn6)(c6ccc(F)cc6F)C5)cc4)CC3)cc2)c1=O,,broth dilution,8659,,MIC,1 µg/mL
CC(C)CC(O)C(=O)O,,broth dilution / visual reading,G 212,,MFC100,72000 µg/mL
NC(=O)N/N=C/c1ccsc1/C=N/NC(N)=O,,turbidity / absorbance,LMA 1085,,MIC80,>250 µg/mL
C=CCc1ccc(OC)c(OC)c1,,turbidity,2622,,MIC90,350 µg/mL
Cc1ccccc1N1C(=O)CC(C)C1=O,,broth dilution / turbidity,CCC 115-2000,,MIC,125 µg/mL
ON=Cc1ccc[n+](Cc2csc3ccccc23)c1.[Cl-],,broth dilution,,,EC50,>20 µg/mL
CCC(C)/C=C1\SC(=O)N(CC(O)(Cn2nccn2)c2ccc(F)cc2F)C1=O,,,,,MIC80,0.31 µg/mL
CC(C)CC1NC(=O)CC(CCCCCCCCC(C)O)OC(=O)C(CC(C)C)NC(=O)C(CC(C)C)NC(=O)C(CC(C)C)NC(=O)C(C(C)C)NC(=O)C(CC(=O)O)NC(=O)C(CC(C)C)NC1=O,,visual reading,MTCC 3019,,MFC,4 µg/mL
COC(=O)[C@H]1[C@@H]2C[C@@H](O[C@@H]3O[C@H](C)[C@@H](O)[C@H](N)[C@@H]3O)/C=C/C=C/C=C/C=C/C=C/C=C/C=C/[C@H](C)[C@@H](O)[C@H](C)[C@H](C)OC(=O)C[C@H](O)C[C@H](O)[C@@H](O)CC[C@H](O)C[C@H](O)C[C@](O)(C[C@@H]1O)O2,,broth dilution,40 isolates,pH 6,EC90,0.5 µg/mL
O=C1S/C(=C\c2ccncc2)C(=O)N1CC(O)(Cn1nccn1)c1ccc(F)cc1F,,,,,MIC80,1.13 µg/mL
CC(C)(C)N1C(=O)C=CC1=O,,broth dilution,DSM 11226,,MIC80,4 µg/mL
Clc1ccc(C(c2ccccc2)n2cnc3ccccc32)cc1,,agar,,,MIC90,>256 µg/mL
Cc1ccc(-c2c3c(N)c4c(nc3nc3c2c(C)nn3-c2ccccc2)CCCCC4)cc1,,broth dilution / absorbance,CCC 115,,MIC80,>250 µg/mL
O/N=C\c1ccccc1,,,,,MIC100,8260 µM
CC1C(=O)N(c2ccccc2)C(=O)C1C,,broth dilution / turbidity,CCC 115-2000,,MIC,125 µg/mL
CC(C)C[C@H](N)C(=O)O,,broth dilution,CCUG 32725,,MFC100,>72000 µg/mL
Clc1ccc(COC(Cn2ccnc2)c2ccc(Cl)cc2Cl)c(Cl)c1,,broth dilution,40 isolates,pH 5,EC90,8 µg/mL
Nc1ncccc1-c1cc(Cc2ccc(COc3ccccn3)cc2)no1,,broth dilution,,,MIC90,0.06 µg/mL
C[C@H]1[C@H](O)[C@@H](C)/C=C/C=C/C=C/C=C/C=C/C=C/C=C/[C@H](O[C@@H]2O[C@H](C)[C@@H](O)[C@H](N)[C@@H]2O)C[C@@H]2O[C@](O)(C[C@@H](O)C[C@@H](O)CC[C@H](O)[C@@H](O)C[C@@H](O)CC(=O)O[C@H]1C)C[C@H](O)[C@H]2C(=O)O,,broth dilution,MTCC 3019,,MIC100,0.5 µg/mL
Nc1nc(/N=C/c2c(O)ccc3ccccc23)n[nH]1,200 µg/mL,agar diffusion / agar,,,inhibition,39%
O=C1C=CC(=O)N1c1ccc(Br)cc1,,broth dilution,DSM 11226,,MIC80,2 µg/mL
Cc1ccc(-c2c3c(N)c4c(nc3nc3c2c(C)nn3-c2ccccc2)CCC4)cc1,,broth dilution / absorbance,CCC 115,,MIC100,>250 µg/mL
O/N=C/c1ccc[n+](Cc2cc(C[n+]3cccc(/C=N/O)c3)on2)c1.[Br-].[Br-],,broth dilution,,,EC50,>20 µg/mL